# Test results taken from patent publication US20220054643A1, “SAPONIN CONJUGATED TO EPITOPE-BINDING PROTEINS” (priority 2018, published 2022).
# Tests used:
# Test in all cases: cell viability assay (MTS)
# Type in all cases: cell-based, human
# SK-BR-3 cells = test system: SK-BR-3 cells
# MDA-MB-468 cells = details: for cell killing activity: MDA-MB-468, agent alone
# HeLa cells = details: agent titrated + 10 pM CD71mab-saporin, read-out: IC50 cell killing
# [1] = SK-BR-3 (HER2++), agent titrated + fixed 50 pM trastuzumab-saporin
substance,measurement,setting,value
"trastuzumab-(L-SO1861)^3,8: labile SO1861 conjugated to trastuzumab",IC50 cell killing,"SK-BR-3 cells; SK-BR-3, agent alone",not observed
cetuximab-(Cys-S-SO1861)^3.7: SO1861-HATU (stable linker) conjugated via cysteine residues to cetuximab,IC50 cell killing,"MDA-MB-468 cells; MDA-MB-468 (EGFR++), agent titrated + 10 pM cetuximab-saporin",same enhanced cell killing activity
trastuzumab-(Cys-S-SO1861)^4: stable-linked SO1861 conjugated to trastuzumab,IC50 cell killing,SK-BR-3 cells; [1],The same data were revealed
trastuzumab-(Cys-L-SO1861)^2.1: SO1861-EMCH conjugated via cysteine residues to trastuzumab,IC50 cell killing,SK-BR-3 cells; [1],Same results were obtained
"cetuximab-Cys-(dendron(-L-SO1861)^4)^3,9: Dendron(-L-SO1861)^4 conjugated to cetuximab via cysteine residues",IC50,"MDA-MB-468 cells; MDA-MB-468 (EGFR++), agent titrated + 10 pM cetuximab-saporin, read-out: IC50 cell killing",0.4 nM
same,cell killing activity,MDA-MB-468 cells,not induced
same,cell killing activity,"MDA-MB-468 cells; listed as Cetuximab-Cys-(dendron(-L-SO1861)^4)^3,9",could not be induced
same,IC50,HeLa cells,> 100 nM
